Measurements published in patent publication US20070276049A1 (priority 2003, published 2007).

Test system: human T cells
Assay type: cell-based
Conditions: T cells plus GML (15 μg/ml) plus TSST-1 (10 μg/ml)

## CCCCCCCCCCCC(=O)OCC(O)CO (stereo not shown) [GML, glycerol monolaurate]
  Counts/min (incorporation of 3H-thymidine into DNA): 5,500 Counts/min
